Measured values from several laboratories, pooled; numbers as filed in NIAID ChemDB.

Common to all: toxicity to cultured cells; cells: MT-4; endpoint: CC50

Conditions beyond the fields shown may differ between rows. CCn is the concentration with n% toxicity to the cells.

structure	result
CCc1c(Sc2ccccc2)n(C/C=C/c2ccco2)c(=O)[nH]c1=O	>1 µM
Cc1cc(C)c(S(=O)(=O)OCC2OC3OC4C(CO)OC(OC5C(CO)OC(OC6C(CO)OC(OC7C(CO)OC(OC8C(CO)OC(OC9C(C[n+]%10ccccc%10)OC(OC2C(O)C3O)C(O)C9O)C(O)C8O)C(O)C7O)C(O)C6O)C(O)C5O)C(O)C4O)c(C)c1	>1000 µg/mL
Cc1c(Sc2ccccc2)n(C/C=C/c2ccc([N+](=O)[O-])s2)c(=O)[nH]c1=O	>1 µM
CC(C)=CCn1c(=O)c(C)cn([C@H]2C[C@H](N=[N+]=[N-])[C@@H](CO)O2)c1=O	151 µM
Nc1nc2c(ncn2OC2COC(CO)O2)c(=O)[nH]1	>100 µg/mL
COc1ncnc(NS(=O)(=O)c2ccc(N=C3C(=O)N(CN4CCOCC4)c4ccccc43)cc2)c1OC	<1 µg/mL
Cc1cn([C@H]2C[C@H](N=[N+]=[N-])[C@@H](CO)O2)c(=O)n(C)c1=O	>500 µM
CCc1nc(NCN2C(=O)C(=Nc3ccc(S(=O)(=O)Nc4ncnc(OC)c4OC)cc3)c3ccccc32)nc(N)c1-c1ccc(Cl)cc1	2.4 µg/mL
CCc1[nH]c(=S)n(Nc2cccc(C)c2)c1-c1ccccc1	53.55 µM
Cc1cn([C@@H]2C=CC[C@@H](CO)O2)c(=O)[nH]c1=O	>100 µM
COC(=O)C1C(O)C[C@@]2(O)CC(O)C(O)CCC(O)CC(O)CC(O)CC(=O)O[C@@H](C)[C@H](C)[C@H](O)[C@@H](C)/C=C/C=C/C=C/C=C/C=C/C=C/C=C/[C@H](O[C@@H]3O[C@H](C)[C@@H](O)[C@H](NC(=NCC[N+]4(C)CCOCC4)NC4CCCCC4)[C@@H]3O)CC1O2	>20 µg/mL
Cc1cn([C@@H]2O[C@H](CO[Si](C)(C)C(C)(C)C)[C@@H](O)[C@H]2O[Si](C)(C)C(C)(C)C)c(=O)[nH]c1=O	5.7 µg/mL
Nc1ncnc2c1ncn2O[C@H]1CS[C@@H](CO)O1	>100 µg/mL
COC(=O)c1c(C)[nH]c(=S)n1Nc1cccc(Cl)c1	190 µM
CC(=O)c1ccc(C)cc1N[C@@H](C(N)=O)c1c(Cl)cccc1Cl	270 µM
CC(C)(C)[Si](C)(C)OC[C@H]1O[C@@H](n2cnc3c(N)ncnc32)[C@H](O[Si](C)(C)C(C)(C)C)C12OS(=O)(=O)C=C2N	3.9 µg/mL
COc1ncnc2c1ncn2O[C@@H]1CS[C@@H](CO)O1	>100 µg/mL
Cc1c(Sc2ccccc2)n(C/C=C/c2cccs2)c(=O)[nH]c1=O	>1 µM
Cc1c(Cc2ccc3ccccc3c2)n(COCCO)c(=O)[nH]c1=O	143 µM
C=C(C)C(=O)NC(=O)N[C@@H]1OC(CO[Si](C)(C)C(C)(C)C)C2(OS(=O)(=O)C=C2N)C1O[Si](C)(C)C(C)(C)C	9.1 µM
Cc1cn([C@H]2C[C@H](N=[N+]=[N-])[C@@H](CO)O2)c(=O)n(Cc2ccccc2)c1=O	210 µM
Cc1cn([C@@H]2OC(O[Si](C)(C)C(C)(C)C)C3(OS(=O)(=O)C=C3NCCC(=O)OCc3ccccc3)C2O[Si](C)(C)C(C)(C)C)c(=O)n(C)c1=O	>250 µM
CCc1c(C(=O)c2cccc(C#N)c2)n(Cc2cccc(C#N)c2)c(=O)[nH]c1=O	>100 µM
CCOCn1c(Cc2cccc3ccccc23)c(C)c(=O)[nH]c1=O	43.3 µM
CCOCn1c(C(=O)c2cccc(C#N)c2)c(CC)c(=O)[nH]c1=O	>100 µM
CCCc1c(Cc2ccc3ccccc3c2)n(COCc2ccccc2)c(=O)[nH]c1=O	31.8 µM
Clc1cccc(Nn2cnc3c2CCCC3)c1	67.29 µM
Cn1c([S-])nc2nc(-c3ccccc3)c(-c3ccccc3)nc2c1=O.Cn1c([S-])nc2nc(-c3ccccc3)c(-c3ccccc3)nc2c1=O.[O]=[V+2]	61.43 µg/mL
C=C(C)C(=O)NC(=O)NC1OC(CO[Si](C)(C)C(C)(C)C)C2(OS(=O)(=O)C=C2N)C1O[Si](C)(C)C(C)(C)C	2.85 µM
Nc1ncnc2c1ncn2O[C@@H]1CO[C@@H](CO)O1	>100 µg/mL
COc1ncnc(NS(=O)(=O)c2ccc(N=C3C(=O)N(CN4CCCCC4)c4ccc(C)cc43)cc2)c1OC	10.7 µg/mL
Cc1cn([C@H]2C[C@H](N=[N+]=[N-])[C@@H](CO)O2)c(=O)n(C(C)C)c1=O	278 µM
COc1ncnc(NS(=O)(=O)c2ccc(N=C3C(=O)N(CN(C)C)c4ccccc43)cc2)c1OC	2.4 µg/mL
Cc1ncn(Nc2ccccc2)c1C	351 µM
COCn1c(Cc2cccc3ccccc23)c(C)c(=O)[nH]c1=O	183 µM
CC(C)(C)[Si](C)(C)O[C@H]1[C@H](n2cnc3c(N)ncnc32)O[C@H](CO)C12CS(=O)(=O)C=C2N	≥200 µg/mL
CC(=O)c1ccccc1N[C@@H](C(N)=O)c1c(Cl)cccc1Cl	120 µM
CCCOCn1c(C(F)c2cccc(C#N)c2)c(CC)c(=O)[nH]c1=O	>100 µM
CO[C@H]([C@@H]1OC[C@@](O)(CO)[C@H]1N=[N+]=[N-])n1cc(C)c(=O)[nH]c1=O	>300 µM
Cc1c(Sc2ccccc2)n(COCCN2CCOCC2)c(=O)[nH]c1=O	>1 µM
C=CCn1c(=O)c(C)cn([C@@H]2O[C@H](CO[Si](C)(C)C(C)(C)C)C3(OS(=O)(=O)C=C3N)[C@H]2O)c1=O	32 µg/mL
Cc1c(Cc2ccc3ccccc3c2)n(COCc2ccccc2)c(=O)[nH]c1=O	34.1 µM
O=c1ccn([C@@H]2C=CC[C@@H](CO)O2)c(=O)[nH]1	>100 µM
CO[C@@H]([C@@H]1OC[C@@](O)(CO)[C@H]1N=[N+]=[N-])n1cc(C)c(=O)[nH]c1=O	>300 µM
CC(=O)c1ccc(C)cc1N[C@H](C(N)=O)c1c(Cl)cccc1Cl	420 µM
Cc1[nH]c(=S)n(Nc2cccc(Cl)c2)c1-c1cccc(C#N)c1	99.4 µM
Cc1cn([C@@H]2CC=C[C@@H](CO)O2)c(=O)[nH]c1=O	>100 µM
Cc1cn([C@H]2C[C@H](N=[N+]=[N-])[C@@H](CO)O2)c(=O)n(CC2CO2)c1=O	359 µM
Cc1cc(C)cc(Nn2cnc(C)c2-c2ccccc2)c1	20.44 µM
Cc1c(Sc2ccccc2)n(COCCBr)c(=O)[nH]c1=O	>1 µM
Cc1ncn(Nc2cccc(Cl)c2)c1-c1cccc(Cl)c1	11.94 µM
Cc1c(Sc2ccccc2)n(C/C=C/c2ccccc2)c(=O)[nH]c1=O	>1 µM
COc1ncnc(NS(=O)(=O)c2ccc(N=C3C(=O)N(CN4CCNCC4)c4ccccc43)cc2)c1OC	1.8 µg/mL
NC(=O)[C@@H](Nc1ccccc1[N+](=O)[O-])c1c(Cl)cccc1Cl	66 µM

Repeating the final 8 entries:

Cc1cn([C@@H]2CC=C[C@@H](CO)O2)c(=O)[nH]c1=O ; result: >100 µM
Cc1cn([C@H]2C[C@H](N=[N+]=[N-])[C@@H](CO)O2)c(=O)n(CC2CO2)c1=O ; result: 359 µM
Cc1cc(C)cc(Nn2cnc(C)c2-c2ccccc2)c1 ; result: 20.44 µM
Cc1c(Sc2ccccc2)n(COCCBr)c(=O)[nH]c1=O ; result: >1 µM
Cc1ncn(Nc2cccc(Cl)c2)c1-c1cccc(Cl)c1 ; result: 11.94 µM
Cc1c(Sc2ccccc2)n(C/C=C/c2ccccc2)c(=O)[nH]c1=O ; result: >1 µM
COc1ncnc(NS(=O)(=O)c2ccc(N=C3C(=O)N(CN4CCNCC4)c4ccccc43)cc2)c1OC ; result: 1.8 µg/mL
NC(=O)[C@@H](Nc1ccccc1[N+](=O)[O-])c1c(Cl)cccc1Cl ; result: 66 µM